Compound potency records, mixed from different reports. Data source: NIAID ChemDB in PubChem.

Common to all: growth or infection tests; agent: Candida albicans; measure: MIC

An empty or dashed field is not shown.

| smiles | strain or isolate | result |
|---|---|---|
| Cn1cc(-c2ccccc2Cl)c(C(c2ccc(Cl)cc2Cl)n2ccnc2)c1 |  | 0.36 µg/mL |
| C[C@@H](c1ncncc1F)[C@](O)(Cn1cncn1)c1ccc(F)cc1F | OY-2-76 (FLU-S) | 8 µg/mL |
| C=CCn1cc(-c2ccc(Cl)cc2)c(C(c2ccccc2)n2ccnc2)c1 |  | 0.019 µg/mL |
| NCCSC(C[N+](=O)[O-])c1cc([N+](=O)[O-])ccc1Br |  | 1000 µg/mL |
| CN(Cc1cccc2ccsc12)/N=C\c1ccc(Cl)cc1 |  | >64 µg/mL |
| CCC(C)n1ncn(-c2ccc(N3CCN(c4ccc(OC[C@H]5CO[C@](Cn6cncn6)(c6ccc(Cl)cc6Cl)O5)cc4)CC3)cc2)c1=O | A28235 | 0.03 µg/mL |
| C[C@H]1[C@H](O)[C@@H](C)/C=C/C=C/C=C/C=C/C=C/C=C/C=C/[C@H](O[C@@H]2O[C@H](C)[C@@H](O)[C@H](N)[C@@H]2O)C[C@@H]2O[C@](O)(C[C@@H](O)C[C@@H](O)CC[C@H](O)[C@@H](O)C[C@@H](O)CC(=O)O[C@H]1C)C[C@H](O)[C@H]2C(=O)O | ATCC 90018 | 0.5 µg/mL |
| COc1ccc(C(Cc2ccccc2[N+](=O)[O-])n2ccnc2)cc1 |  | 97 µg/mL |
| C=C(C)C(=O)NCCCCC(N)C(=O)NCCCCC(N)C(=O)O |  | 27 µg/mL |
| C=C1CCC2C(C)(C)CCC[C@]2(C)C1CCCC(C)=O | UBC1 | >50 µg/mL |
| Cc1ccccc1C(Cc1ccc(Cl)cc1)Cn1ccnc1 |  | >100 µg/mL |
| CCCCCCCCCCCCCCCCCC(=O)NC1CC(O)C(O)NC(=O)C2C(O)C(C)CN2C(=O)C(C(C)O)NC(=O)C(C(O)C(O)c2ccc(O)cc2)NC(=O)C2CC(O)CN2C(=O)C(C(C)O)NC1=O | MY1028 | 0.25 µg/mL |
| Clc1ccc(CC(Cn2ccnc2)c2c(Cl)cccc2Cl)c(Cl)c1 |  | >100 µg/mL |
| CN(Cc1cccc2ccsc12)/N=C\C#CC(C)(C)C |  | >64 µg/mL |
| Clc1ccc(CC(Cn2ccnc2)c2c(Cl)cccc2Cl)cc1 |  | 100 µg/mL |
| Cc1c(O)cccc1C(=O)N[C@@H](CSc1ccccc1)[C@H](O)CN1C[C@H]2CCCC[C@H]2C[C@H]1C(=O)NC(C)(C)C | I21B | 64 µg/mL |
| C[C@H]1[C@H](O)[C@@H](C)/C=C/C=C/C=C/C=C/C=C/C=C/C=C/[C@H](O[C@@H]2O[C@H](C)[C@@H](O)[C@H](N)[C@@H]2O)C[C@@H]2O[C@](O)(C[C@@H](O)C[C@@H](O)CC[C@H](O)[C@@H](O)C[C@@H](O)CC(=O)O[C@H]1C)C[C@H](O)[C@H]2C(=O)O | A9540 | 0.4 µg/mL |
| COc1ccc(CCC(Cn2ccnc2)c2ccc(Cl)cc2Cl)cc1 |  | >100 µg/mL |
| Fc1ccc(C(c2ccn(-c3ccc(F)cc3)c2)n2ccnc2)cc1 |  | 1.4 µg/mL |
| NCCSC(C[N+](=O)[O-])c1cccc(Cl)c1 |  | 100 µg/mL |
| C=C1CCC2C(C)(C)CCC[C@@]2(C)[C@@H]1CCC/C(C)=C/C(=O)OC | UBC1 | >50 µg/mL |
| CCCC(c1ccccc1SCc1ccc(Cl)c(Cl)c1)n1ccnc1 |  | >100 µg/mL |
| CCCCCCCCC(OC)C(=O)O | ATCC 14053 | >870 µM |
| CN[C@@H]1[C@H](O[C@@H]2OC[C@@H](O)[C@H](O)[C@H]2O)[C@@H](O)[C@H](O[C@H]2c3cc(C)c(C(=O)N[C@H](C)C(=O)O)c(O)c3-c3c(cc4c(c3O)C(=O)c3cc(OC)cc(O)c3C4=O)[C@@H]2O)O[C@@H]1C | A9540 | 6.3 µg/mL |
| C=C1C[C@@]23CC[C@H]4[C@@](C)(CCC[C@@]4(C)C(=O)OC)[C@@H]2CC[C@@H]1C3 | UBC1 | >50 µg/mL |
| CN(Cc1cccc2ccccc12)/N=C\C=C\c1ccccc1 |  | >64 µg/mL |
| CCn1cc(-c2ccc(Cl)cc2Cl)c(C(c2ccccc2)n2ccnc2)c1 |  | 0.33 µg/mL |
| Clc1ccc(CC(Cn2ccnc2)c2ccccc2Br)c(Cl)c1 |  | 10 µg/mL |
| Fc1ccc(C(c2ccn(-c3ccccc3)c2)n2ccnc2)cc1 |  | 1.8 µg/mL |
| CCC(C)CC(C)CCCCCCCCC(=O)NC1C[C@H](O)[C@@H](O)NC(=O)[C@@H]2[C@@H](O)[C@@H](C)CN2C(=O)[C@H]([C@H](O)CC(N)=O)NC(=O)[C@H](C(O)[C@H](O)c2ccc(O)cc2)NC(=O)[C@@H]2C[C@@H](O)CN2C(=O)[C@H]([C@@H](C)O)NC1=O | MY1028 | 0.5 µg/mL |
| Cn1cc(-c2ccccc2)c(C(c2ccc3ccccc3c2)n2ccnc2)c1 |  | 63 µg/mL |
| Clc1ccc(C(CCc2ccccc2)Cn2ccnc2)c(Cl)c1 |  | 100 µg/mL |
| Cc1ccc(C(c2ccn(-c3ccc(Cl)cc3)c2)n2ccnc2)cc1 |  | 1.1 µg/mL |
| Clc1ccc(CSc2ccccc2Cn2ccnc2)cc1Cl |  | 12.5 µg/mL |

Repeating the final 2 entries:

smiles,strain or isolate,result
Cc1ccc(C(c2ccn(-c3ccc(Cl)cc3)c2)n2ccnc2)cc1,,1.1 µg/mL
Clc1ccc(CSc2ccccc2Cn2ccnc2)cc1Cl,,12.5 µg/mL

Neighbouring rows are from separate reports.